For 1 molecule, EC50 results are on record in patent US20230181700A1 (GLIKNIK, published 2023).

This test addresses SARS-CoV-2 S1 spike protein (Acrobiosystem, Cat No: SPN-CH52H8) (SARS-CoV-2).

B1: GL-ACE2-IgG1, the reference (parental) ACE2-IgG1 fusion protein (Fc fusion)
chain: not shown
One may read the EC50 as the concentration at which the effect is half-maximal. Low readings indicate higher potency in that assay, high ones lower potency in that assay. For B1, it took 0.216 µg/mL to reach a half-maximal effect (EC50).
